Test results from article PMC9414862, “In Vitro and In Silico Potential Inhibitory Effects of New Biflavonoids from Ochna rhizomatosa on HIV-1 Integrase and Plasmodium falciparum” (Pharmaceutics, 2022).

Protein sequences, listed by entry. Tags and fused reporters are not part of them. Residues count along the entry.
UniProt Q75002, 1152-1439: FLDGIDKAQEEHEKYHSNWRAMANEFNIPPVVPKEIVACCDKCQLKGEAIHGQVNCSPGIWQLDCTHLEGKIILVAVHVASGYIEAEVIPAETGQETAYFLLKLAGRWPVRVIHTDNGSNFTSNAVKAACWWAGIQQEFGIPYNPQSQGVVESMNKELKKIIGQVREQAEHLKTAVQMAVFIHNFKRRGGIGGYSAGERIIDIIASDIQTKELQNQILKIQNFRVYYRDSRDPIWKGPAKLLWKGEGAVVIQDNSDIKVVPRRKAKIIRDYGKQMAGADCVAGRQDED

Target: T1, HIV-1 integrase (purified recombinant HIV-1 subtype C IN) (Human immunodeficiency virus type 1 group M subtype C, UniProt Q75002)
T1 construct: Recombinant HIV-1 subtype CIN was assembled on to the pre-processed donor DNA
Experiment: HIV-1 Integrase strand transfer inhibition assay
Type: biochemical
Settings: read-out: Assembly IC50 (anti-HIV-1 integrase activity); mean ± SD; '-' in Table 2 = no inhibition detected
Description: The HIV-1 Integrase strand transfer inhibition assay was adapted from previously described methods. […] Following incubation at room temperature for 40 min and a stringent wash step, 5 µg/mL purified recombinant HIV-1 subtype CIN in integrase buffer 1 ([…] to ethanol, 50 µg/mL BSA, pH 7.5) was added to individual wells. […] Recombinant HIV-1 subtype CIN was assembled on to the pre-processed donor DNA through incubation for 45 min at room temperature. Strand transfer reaction was initiated through the addition of 10 µM (final concentration) double-stranded FITC-labelled target DNA (5′-[…]/36-FAM/-3′) annealed to (5′-[…]-/36-FAM/-3′) in integrase buffer 2 (same as buffer 1, except 25 µM MnCl2 was replaced with 2.5 µM MgCl2). After an incubation period of 60 min at 37 °C, the plates were washed using PBS containing 0.05% Tween 20 and 0.01% BSA, followed by the addition of peroxidase-conjugated sheep anti-FITC antibody (Thermo Scientific, Waltham, MA, USA) diluted 1:1000 in the same PBS buffer. Finally, the plates were washed and peroxidase substrate (Sure Blue Reserve™, KPL, Gaithersburg, MD, USA) was added to allow for detection at 620 nm using a Synergy MX (BioTek®) plate reader. Absorbance values were converted to % enzyme activity relative to the readings obtained from the control wells (enzyme without inhibitor).

Chicoric acid [reference compound]
IC50: 6 ± 2 nM
